# PubChem BioAssay AID1259414, Drosophila RNAi Screening Center | 2018
# Aim: 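Host factors increasing or decreasing Wolbachia levels in cultured fly cells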 (primary screen)
# Cells: Drosophila JW18 cells infected with Wolbachia
# Reagents: long dsRNA against Drosophila genes, 0.25 µg dsRNA per well of a 384-well plate
# Timing: 5 days
# Treatment: cells persistently infected with Wolbachia before knock-down; no added drug
# Detection: 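Automated imaging of bacterial rRNA staining divided by host cell count, reported as plate-normalised robust z-score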
# Scale: Wolbachia per cell robust z: higher = more Wolbachia per host cell than the plate typical
# Hit rule: 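Hit when robust z is 1.5 or more, or -1.5 or less, in at least two of three replicates; excludes dsRNAs with several or no targets, genes not expressed in JW18 and well A1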
# The screen tested about 24,000 reagents; shown is an unselected part of those with a known target gene and a result. Over the whole deposit, about 1,210 (5%) are marked active. 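Inactive calls also include excluded dsRNAs with several or no targets, genes unexpressed in JW18, and well A1, regardless of score.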 The numbers tell different reagents against one gene apart. A plus sign joins genes that one reagent is predicted to hit.
gene,reagent no.,"Wolbachia per cell robust z, rep 1","Wolbachia per cell robust z, rep 2","Wolbachia per cell robust z, rep 3",Outcome
fid (GeneID 43148),1,0.89,-2.09,1.14,inactive
fid (GeneID 43148),2,-0.361,-2.31,-3.03,inactive
fid (GeneID 43148),3,1.26,1.7,1.57,inactive
fid (GeneID 43148),4,-0.364,-0.212,-5.22,inactive
Mal-B2 (GeneID 34598),1,0.61,0.137,0.338,inactive
Map205 (GeneID 43765),1,1.53,0.422,1.28,inactive
Map205 (GeneID 43765),2,-0.894,-0.906,-2.32,inactive
Peritrophin-15b (GeneID 50432),1,0.182,-0.111,-0.538,inactive
comm3 (GeneID 39696),1,0.425,-1.83,0.544,inactive
comm3 (GeneID 39696),2,0.407,0.138,0.0353,inactive
comm3 (GeneID 39696),3,0.134,0.479,0.392,inactive
okr (GeneID 33507),1,0.281,0.642,0.0405,inactive
okr (GeneID 33507),2,0.78,0.995,0.87,inactive
CG33798 (GeneID 3772108),1,0.697,-1.25,0.875,inactive
Ciao1 (GeneID 36655),1,-5.83,-0.815,-0.137,inactive
CG34284 (GeneID 5740234),1,1.27,-2.34,0.739,inactive
CG8138 (GeneID 41619),1,0.431,1.24,-4.77,inactive
Obp84a + Dtwd2,1,0.785,0.255,0.904,inactive
CG30383 (GeneID 246583),1,-1.01,-0.89,-2.48,inactive
CR43381 + CR32821 + CR43379 + 1 more,1,0.736,0.765,0.417,inactive
UQCR-11 (GeneID 5740185),1,-0.726,0.656,-1.71,inactive
Nup188 (GeneID 36397),1,-0.0884,-0.133,-0.34,inactive
Nup188 (GeneID 36397),2,-7.79,-0.427,-0.497,inactive
CG5535 (GeneID 39990),1,0.523,1.27,0.628,inactive
CG5535 (GeneID 39990),2,-0.391,-0.326,-0.129,inactive
CG17234 (GeneID 59225),1,-0.0619,1.06,0.844,inactive
stck (GeneID 40999),1,-3.27,1.08,0.528,inactive
Prm (GeneID 39002),1,0.305,1.12,0.488,inactive
Prm (GeneID 39002),2,0.533,0.318,1.26,inactive
Prm (GeneID 39002),3,0.556,0.0976,0.319,inactive
Prm (GeneID 39002),4,0.556,-0.859,-1.26,inactive

Look-ups from above.
For “Wolbachia per cell robust z, rep 1”, CG34284 (GeneID 5740234) is entered as 1.27
Entry of Nup188 (GeneID 36397) #2 under “Outcome”: inactive
For “Wolbachia per cell robust z, rep 3”, okr (GeneID 33507) #2 is entered as 0.87
Prm (GeneID 39002) #2, Wolbachia per cell robust z, rep 2 → 0.318
Result of comm3 (GeneID 39696) #3 in “Wolbachia per cell robust z, rep 2”: 0.479
